Experimental data: PMC3203990 (The FEBS journal, 2011)

Test system: O=[N+]([O-])c1ccc(OP(=O)(O)O)cc1
Assay: purified protein
Conditions: 0.2 M sodium acetate, 1 mM MgCl2, pH 5.5, 25 °C

## rP4 (recombinant Haemophilus influenzae e (P4) class C acid phosphatase) (Haemophilus influenzae Rd KW20)
  Km: 120 ± 20 µM
  kcat: 3.3 ± 0.1 s⁻¹
